PubChem BioAssay AID624099 – ICCB-Longwood – 2012

Test: 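Knock-downs relieving repression by E2 of an HPV18 LCR luciferase reporter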 (primary screen)
System: human C33A cervical carcinoma cells (HPV-negative) stably expressing BPV1 E2 and an HPV18 LCR luciferase reporter
Reagents: siRNA pool against human genes, 40 nM
Duration: 72 h
Read-out: 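HPV18 LCR reporter light per well, converted to plate-wise z-scores that exclude control wells, and averaged over triplicate plates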
Reading the numbers: mean z-score and z-score: higher = stronger reporter signal, weaker E2 silencing
Active means: 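Mean z ≥ 2 together with z ≥ 2 in two or more of the three replicates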
The whole screen tested about 21,000 reagents; below is a random part of them. In the full data, 497 (2.4%) got an active call. 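Higher z means weaker E2 silencing; only reporter increases were scored, and knock-downs that hurt cell survival may mask genuine repressor factors.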

The first 4 records, to show the layout:
Target gene | mean z-score | z-score, replicate A | z-score, replicate B | z-score, replicate C | call
ANO10 | -0.91 | -0.69 | -0.98 | -1.06 | inactive
SCFD1 | 0.16 | 0.05 | 0.14 | 0.29 | inactive
LOC343717 (retired record) | 0.91 | 0.85 | 0.98 | 0.9 | inactive
LINC00671 | 0.05 | -0.08 | 0.4 | -0.16 | inactive

The list itself, repeating the preview:
Target gene | mean z-score | z-score, replicate A | z-score, replicate B | z-score, replicate C | call
ANO10 | -0.91 | -0.69 | -0.98 | -1.06 | inactive
SCFD1 | 0.16 | 0.05 | 0.14 | 0.29 | inactive
LOC343717 (retired record) | 0.91 | 0.85 | 0.98 | 0.9 | inactive
LINC00671 | 0.05 | -0.08 | 0.4 | -0.16 | inactive
RFC2 | 0.21 | -0.16 | 0.16 | 0.63 | inactive
SCMH1 | -0.82 | -0.8 | -0.68 | -0.98 | inactive
LOC158812 (retired record) | -1.75 | -1.56 | -1.97 | -1.72 | inactive
MPZL1 | 1.32 | 1.47 | 1.16 | 1.34 | inactive
LOC144762 (retired record) | 0.25 | 0.3 | 0.21 | 0.24 | inactive
RPS26P17 | -0.53 | -0.53 | -0.53 | -0.53 | inactive
PRKCE | 0.34 | 0.67 | 0.31 | 0.04 | inactive
ELAPOR1 | 0.37 | 0.45 | 0.67 | -0.01 | inactive
AGR3 | -0.74 | -0.62 | -0.9 | -0.71 | inactive
SRRM1 | 0.05 | 0.11 | 0.09 | -0.04 | inactive
IQCF2 | -0.92 | -0.64 | -1.26 | -0.86 | inactive
ORAI2 | -0.77 | -0.46 | -1 | -0.86 | inactive
RNF167 | 0.06 | 0.3 | -0.06 | -0.07 | inactive
PCDHGC4 | -0.73 | -1.1 | -0.7 | -0.38 | inactive
LRP6 | 2.11 | 2.16 | 2.14 | 2.03 | active
KLHDC8B | -0.16 | -0.46 | -0.22 | 0.19 | inactive
RBFOX3 | -0.27 | 0.22 | -0.15 | -0.87 | inactive
INSL6 | 0.05 | -0.09 | 0.11 | 0.12 | inactive
KLHL9 | -1.3 | -1.37 | -1.38 | -1.14 | inactive
NAT14 | 0.67 | 0.56 | 1.22 | 0.22 | inactive
PARP11 | -0.29 | -0.19 | -0.33 | -0.35 | inactive
SPRR1A | 0.27 | 0.31 | 0.34 | 0.17 | inactive
RHBDL2 | -0.29 | -0.59 | -0.52 | 0.25 | inactive
ITCH | 1.12 | 1.2 | 1.23 | 0.91 | inactive
UAP1L1 | -0.56 | -0.77 | -0.3 | -0.62 | inactive
MSH5 | -0.73 | -0.62 | -0.9 | -0.66 | inactive
SNAPIN | 2.05 | 2.15 | 1.97 | 2.04 | active
NFU1 | -0.73 | -0.73 | -0.64 | -0.82 | inactive
CLIC1 | 0.76 | 0.69 | 0.52 | 1.06 | inactive
PIGF | 0.18 | 0.1 | 0.28 | 0.17 | inactive
AMBP | 0.03 | -0.19 | 0.1 | 0.17 | inactive
KRTAP9-2 | 0.3 | 0.37 | 0.32 | 0.2 | inactive
LOC388353 (retired record) | -0.06 | -0.36 | 0.11 | 0.06 | inactive
SSU72L3 | -0.27 | -0.38 | -0.64 | 0.2 | inactive
PCDHGB5 | 1.13 | 0.92 | 1.53 | 0.96 | inactive
AFAP1L2 | 0.22 | 0.33 | 0.34 | -0.01 | inactive
MT2A | -0.6 | -0.4 | -0.49 | -0.92 | inactive
EPCIP-AS1 | 2.83 | 3 | 2.78 | 2.71 | active
MRPS27 | 0.94 | 1.67 | 0.46 | 0.68 | inactive
SCAND3 | 0.78 | 0.99 | 0.51 | 0.84 | inactive
OR5W2 | -0.05 | -0.64 | 0 | 0.48 | inactive
RBP7 | 0.27 | 0.13 | 0.59 | 0.09 | inactive
ADGRE3 | -0.5 | -0.46 | -0.5 | -0.53 | inactive
BRS3 | 1.2 | 1.03 | 1.26 | 1.32 | inactive
PKDREJ | 0.47 | 0.58 | 0.29 | 0.56 | inactive
BPESC1 | -1.06 | -1.26 | -1.23 | -0.7 | inactive
FGF18 | 0.7 | 0.61 | 1.03 | 0.48 | inactive
UTP14C | 0.52 | 0.72 | 0.26 | 0.58 | inactive
NCOR1 | -0.42 | -0.45 | -0.5 | -0.33 | inactive
CFAP107 | -0.04 | -0.23 | 0.42 | -0.31 | inactive
UBE2B | -0.24 | -0.1 | -0.38 | -0.23 | inactive
NUP37 | 0.6 | 0.65 | 0.06 | 1.08 | inactive
OR6C65 | -1.06 | -1.09 | -0.81 | -1.27 | inactive
ZER1 | 0.04 | 0.03 | -0.09 | 0.18 | inactive
OR5L2 | -1.13 | -0.97 | -1.39 | -1.02 | inactive
PIN1 | -0.33 | -0.38 | -0.32 | -0.3 | inactive
SERP2 | -0.15 | 0 | 0.09 | -0.53 | inactive
RDH11 | -0.59 | -0.79 | -0.27 | -0.71 | inactive
LIME1 | -0.62 | -0.7 | -0.86 | -0.3 | inactive
WDR1 | 0.8 | 1.12 | 0.71 | 0.56 | inactive
IL1RAP | 0.1 | 0.14 | -0.15 | 0.31 | inactive
EGLN2 | 3.14 | 3.08 | 3.34 | 3 | active
CTSC | 0.64 | 0.76 | 0.6 | 0.57 | inactive
CASC3 | -0.82 | -0.81 | -0.73 | -0.92 | inactive
YTHDF3 | -0.52 | -0.44 | -0.41 | -0.7 | inactive
DNAJC28 | -0.31 | -0.25 | -0.22 | -0.45 | inactive
LOC400781 (retired record) | 0.25 | 0.3 | 0.2 | 0.25 | inactive
FAM131B | 0.62 | 0.76 | 0.43 | 0.68 | inactive
TMEM182 | -0.35 | -0.18 | -0.46 | -0.39 | inactive
